Literature values as cited in PMC8284440, “Toward New Transmission-Blocking Combination Therapies: Pharmacokinetics of 10-Amino-Artemisinins and 11-Aza-Artemisinin and Comparison with Dihydroartemisinin and Artemether” (Antimicrobial Agents and Chemotherapy, 2021).

Assays:
[1] = system: Chinese hamster ovary (CHO) cells; settings: selectivity index; ref 1 and 2 (supplement; main text 47, 48); cited from earlier work
[2] = system: HepG2; settings: ref 2 (supplement; main text 48); cited from earlier work

SMILES | SI (EC50 CHO/IC50 NF54) [1] | SI (EC50 HepG2/IC50 P. berghei sporozoites) [2]
C[C@H]1[C@H](N2CCN(C(=O)Nc3ccc(F)cc3)CC2)O[C@@H]2O[C@@]3(C)CC[C@H]4[C@H](C)CC[C@@H]1[C@@]24OO3 [Arylurea 10] | 156923 | 48.9
O=C1C(O)=C([C@H]2CC[C@H](c3ccc(Cl)cc3)CC2)C(=O)c2ccccc21 [Atovaquone] |  | > 100
COc1ccc(C[C@H](N)C(=O)N[C@H]2[C@@H](O)[C@H](n3cnc4c(N(C)C)ncnc43)O[C@@H]2CO)cc1 [Puromycin, reference compound] |  | 5.15
